{"source": "ChEMBL document CHEMBL4715793", "about": "“Design and Synthesis of Cajanine Analogues against Hepatitis C Virus through Down-Regulating Host Chondroitin Sulfate N-Acetylgalactosaminyltransferase 1” (J Med Chem, 2016)", "assay": "Resistance ratio of EC50 for antiviral activity against HCV J6/JFH/JC1 harboring A156T mutant infected in human Huh7.5 cells to EC50 for antiviral activity against wild-type HCV J6/JFH/JC1 infected in human Huh7.5 cells", "assay_type": "functional", "data": [{"smiles": "CCC[C@H](NC(=O)[C@@H]1[C@H]2CCC[C@H]2CN1C(=O)[C@@H](NC(=O)[C@@H](NC(=O)c1cnccn1)C1CCCCC1)C(C)(C)C)C(=O)C(=O)NC1CC1", "values": [{"measurement": "Ratio EC50", "result": 31}]}]}
